Compound potency records, mixed from different reports. Data source: NIAID ChemDB in PubChem.

All rows: tests in culture; species: HIV-1

ECn is the concentration giving n% inhibition of infection, replication or growth. Two numbers with a dash give a range or band. Rows are shuffled and stem from different studies. Fold resistance: result on the changed form divided by that on wild type. An empty or dashed field is not shown. Percent inhibition refers to the dose given; in toxicity tests it is the harm to the cells.

compound	dose	endpoint	method	cell line	mutations	strain	result
Cc1cc(S(N)(=O)=O)ccc1NC(=O)COc1ccc(Cl)cc1C(=O)c1cc(Cl)cc(C#N)c1	-	fold resistance	β-galactosidase	HeLa + HELA CD4+	RT-G190A	HXB2	~1
CCc1c(Cc2cc(C)cc(C)c2)n(COCCO)c(=O)[nH]c1=O	-	fold resistance	syncytia	CEM	RT-E138K	IIIB	7.14
O=C(NCCc1ccccc1)Nc1nc(C(F)(F)F)cs1	0.1 µg/mL	inhibition	RT activity	MT-4	-	-	98%
CC(C)=CCOc1cc(NC(=S)c2ccsc2C)ccc1Cl	-	fold resistance	p24	CEM + CEM-SS	RT-L100I	4XAZT+L100I (RT D67N K70R L100I T215Y K219Q)	17
O=C1[C@@H](Cc2ccccc2)NC(=S)N1Cc1ccccc1	100 µg/mL	inhibition	cytopathic effect / XTT	MT-4	-	-	100%
Cc1cc(C#N)cc(C(=O)c2cc(Cl)ccc2OCC(=O)Nc2ccc(S(N)(=O)=O)cc2C)c1	-	fold resistance	β-galactosidase	HeLa + HELA CD4+	RT-V106A Y181C	HXB2	~1
CC(C)c1c(Sc2ccccc2)n(COCc2ccccc2)c(=S)[nH]c1=O	-	fold resistance	syncytia	CEM	Nevirapine resistant (RT Y181C)	IIIB	50
S=C(NCCc1ccc(Cl)cc1)Nc1nccs1	1 µg/mL	inhibition	cytopathic effect / XTT	MT-4	-	-	5–22%
CCc1cc(C#N)cc(C(=O)c2cc(Cl)ccc2OCC(=O)Nc2ccc(S(N)(=O)=O)cc2C)c1	-	fold resistance	β-galactosidase	HeLa + HELA CD4+	RT-V106A Y181C	HXB2	~1
Cc1cc(C)cc(Cc2c(C(C)C)c(=O)[nH]c(=O)n2COCCO)c1	-	fold resistance	syncytia	CEM	RT-K103N	IIIB TIBO R82913-resistant (RT K103N)	≥58.8
Cc1cc(S(N)(=O)=O)ccc1NC(=O)COc1ccc(Cl)cc1C(=O)c1cccc(C#N)c1	-	fold resistance	β-galactosidase	HeLa + HELA CD4+	RT-K103N	HXB2	~1
CC(C)c1c(Sc2ccccc2)n(COCCO)c(=O)[nH]c1=O	-	fold resistance	syncytia	CEM	RT-Y181C	IIIB	196
S=C(NCCc1ccccc1)N1CCCCC1	1 µg/mL	inhibition	cytopathic effect / XTT	MT-4	-	-	0%
Cc1cc(OCCCS(N)(=O)=O)ccc1NC(=O)COc1ccc(Cl)cc1C(=O)c1cc(F)cc(C(F)(F)F)c1	-	EC50	β-galactosidase	HeLa + HELA CD4+	RT-K103N Y181C	HXB2 (RT-K103N Y181C) Recombinant	<0.01 µM
CC(C)c1c(Sc2ccccc2)n(COCCO)c(=S)[nH]c1=O	-	fold resistance	syncytia	CEM	RT-K103N	IIIB TIBO R82913-resistant (RT K103N)	>50

For reference, 2 entries again:

compound | dose | endpoint | method | cell line | mutations | strain | result
CC(C)=CCOc1cc(NC(=S)c2ccsc2C)ccc1Cl | - | fold resistance | p24 | CEM + CEM-SS | RT-L100I | 4XAZT+L100I (RT D67N K70R L100I T215Y K219Q) | 17
CC(C)c1c(Sc2ccccc2)n(COCCO)c(=S)[nH]c1=O | - | fold resistance | syncytia | CEM | RT-K103N | IIIB TIBO R82913-resistant (RT K103N) | >50